PubChem BioAssay AID1259414 – Drosophila RNAi Screening Center, 2018
Test: 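Genome-wide screen for host control of endosymbiont load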 (primary screen). System: Drosophila JW18 cells infected with Wolbachia. Reagent: long dsRNA against Drosophila genes, 0.25 µg dsRNA per well of a 384-well plate. Timing: 5 days. Treatment: cells persistently infected with Wolbachia before knock-down; no added drug. Measured: 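Imaged fluorescence in situ signal for Wolbachia 23S rRNA per DAPI-counted host cell, given as a robust z-score within each plate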. Scale: Wolbachia per cell robust z: higher = more Wolbachia per host cell than the plate typical. Rule for the call: 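Hit when robust z is 1.5 or more, or -1.5 or less, in at least two of three replicates; excludes dsRNAs with several or no targets, genes not expressed in JW18 and well A1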.
In all, the deposit lists about 24,000 reagents; this is a random part of those that have a named target and a result. In the full data, about 1,210 (5%) were called active. 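Inactive calls also include excluded dsRNAs with several or no targets, genes unexpressed in JW18, and well A1, regardless of score.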 Reagents against one gene are numbered here.

The first 2 records, to show the layout:
{"target gene": "Irbp18", "reagent no.": 1, "Wolbachia per cell robust z, rep 1": -0.773, "Wolbachia per cell robust z, rep 2": 0.103, "Wolbachia per cell robust z, rep 3": -1.39, "Call": "inactive"}
{"target gene": "CG34247", "reagent no.": 1, "Wolbachia per cell robust z, rep 1": -0.992, "Wolbachia per cell robust z, rep 2": -7.81, "Wolbachia per cell robust z, rep 3": 0.939, "Call": "inactive"}

The listing, from the first entry:
{"target gene": "Irbp18", "reagent no.": 1, "Wolbachia per cell robust z, rep 1": -0.773, "Wolbachia per cell robust z, rep 2": 0.103, "Wolbachia per cell robust z, rep 3": -1.39, "Call": "inactive"}
{"target gene": "CG34247", "reagent no.": 1, "Wolbachia per cell robust z, rep 1": -0.992, "Wolbachia per cell robust z, rep 2": -7.81, "Wolbachia per cell robust z, rep 3": 0.939, "Call": "inactive"}
{"target gene": "RtGEF", "reagent no.": 1, "Wolbachia per cell robust z, rep 1": -2.34, "Wolbachia per cell robust z, rep 2": -0.577, "Wolbachia per cell robust z, rep 3": -1.06, "Call": "inactive"}
{"target gene": "RtGEF", "reagent no.": 2, "Wolbachia per cell robust z, rep 1": 0.608, "Wolbachia per cell robust z, rep 2": 0.327, "Wolbachia per cell robust z, rep 3": 0.692, "Call": "inactive"}
{"target gene": "Tsp42Ed", "reagent no.": 1, "Wolbachia per cell robust z, rep 1": -3.06, "Wolbachia per cell robust z, rep 2": -5.46, "Wolbachia per cell robust z, rep 3": -2.96, "Call": "active"}
{"target gene": "jp", "reagent no.": 1, "Wolbachia per cell robust z, rep 1": 0.235, "Wolbachia per cell robust z, rep 2": 0.28, "Wolbachia per cell robust z, rep 3": 0.532, "Call": "inactive"}
{"target gene": "Uggt", "reagent no.": 1, "Wolbachia per cell robust z, rep 1": 0.0622, "Wolbachia per cell robust z, rep 2": 0.142, "Wolbachia per cell robust z, rep 3": 0.277, "Call": "inactive"}
{"target gene": "CG13386", "reagent no.": 1, "Wolbachia per cell robust z, rep 1": -0.223, "Wolbachia per cell robust z, rep 2": 1.45, "Wolbachia per cell robust z, rep 3": -0.46, "Call": "inactive"}
{"target gene": "CG13386", "reagent no.": 2, "Wolbachia per cell robust z, rep 1": 0.00652, "Wolbachia per cell robust z, rep 2": 0.721, "Wolbachia per cell robust z, rep 3": -0.266, "Call": "inactive"}
{"target gene": "CG10616", "reagent no.": 1, "Wolbachia per cell robust z, rep 1": 0.602, "Wolbachia per cell robust z, rep 2": 0.603, "Wolbachia per cell robust z, rep 3": -1.3, "Call": "inactive"}
{"target gene": "CG10041", "reagent no.": 1, "Wolbachia per cell robust z, rep 1": -1.1, "Wolbachia per cell robust z, rep 2": 0.573, "Wolbachia per cell robust z, rep 3": 1.02, "Call": "inactive"}
{"target gene": "CG10041", "reagent no.": 2, "Wolbachia per cell robust z, rep 1": 0.44, "Wolbachia per cell robust z, rep 2": 0.484, "Wolbachia per cell robust z, rep 3": -0.576, "Call": "inactive"}
{"target gene": "GstE10", "reagent no.": 1, "Wolbachia per cell robust z, rep 1": -0.349, "Wolbachia per cell robust z, rep 2": 0.135, "Wolbachia per cell robust z, rep 3": 0.674, "Call": "inactive"}
{"target gene": "GstE10", "reagent no.": 2, "Wolbachia per cell robust z, rep 1": 0.255, "Wolbachia per cell robust z, rep 2": 0.12, "Wolbachia per cell robust z, rep 3": -0.744, "Call": "inactive"}
{"target gene": "CG44153", "reagent no.": 1, "Wolbachia per cell robust z, rep 1": -0.551, "Wolbachia per cell robust z, rep 2": 0.287, "Wolbachia per cell robust z, rep 3": 0.88, "Call": "inactive"}
{"target gene": "CG44153", "reagent no.": 2, "Wolbachia per cell robust z, rep 1": 0.695, "Wolbachia per cell robust z, rep 2": -5.19, "Wolbachia per cell robust z, rep 3": 0.0646, "Call": "inactive"}
{"target gene": "CG44153", "reagent no.": 3, "Wolbachia per cell robust z, rep 1": 0.861, "Wolbachia per cell robust z, rep 2": -4.52, "Wolbachia per cell robust z, rep 3": -0.486, "Call": "inactive"}
{"target gene": "CG44153", "reagent no.": 4, "Wolbachia per cell robust z, rep 1": 0.538, "Wolbachia per cell robust z, rep 2": 0.0508, "Wolbachia per cell robust z, rep 3": -0.113, "Call": "inactive"}
{"target gene": "CG44153", "reagent no.": 5, "Wolbachia per cell robust z, rep 1": -3.88, "Wolbachia per cell robust z, rep 2": -3.28, "Wolbachia per cell robust z, rep 3": -0.174, "Call": "inactive"}
{"target gene": "CG44153", "reagent no.": 6, "Wolbachia per cell robust z, rep 1": -0.393, "Wolbachia per cell robust z, rep 2": 0.0191, "Wolbachia per cell robust z, rep 3": -1.02, "Call": "inactive"}
{"target gene": "CG44153", "reagent no.": 7, "Wolbachia per cell robust z, rep 1": -1.09, "Wolbachia per cell robust z, rep 2": -0.891, "Wolbachia per cell robust z, rep 3": -0.994, "Call": "inactive"}
{"target gene": "CG44153", "reagent no.": 8, "Wolbachia per cell robust z, rep 1": -2.63, "Wolbachia per cell robust z, rep 2": 0.216, "Wolbachia per cell robust z, rep 3": -0.384, "Call": "inactive"}
